Target: His-EF-Tu (recombinant F. tularensis LVS elongation factor Tu with a polyhistidine tag) (Francisella tularensis LVS)

B1: biotinylated p63 peptide (RGG domain, last 63 amino acid residues of human nucleolin) (peptide)
peptide: KGEGGFGGRGGGRGGFGGRGGGRGGRGGFGGRGRGGFGGRGGFRGGRGGGGDHKPQGKKTKFE
modifications: not checked
**Q.** For B1, which concentration of maximum binding is on record?
**A.** 8 µM
